Values of other authors as cited in article PMC9774897 (Antibiotics, 2022).

Test system: M. tuberculosis
Settings: REMA; ref [23]; cited from earlier work
Text: Table 6 The general characteristics and the previously reported MIC of each antimicrobial peptide used in this study. | column: MIC (µg/mL)

Q: With CC[C@H](C)[C@H](NC(=O)CN)C(=O)NCC(=O)N[C@@H](C)C(=O)N[C@H](C(=O)N[C@@H](CC(C)C)C(=O)N[C@@H](CCCCN)C(=O)N[C@H](C(=O)N[C@@H](CC(C)C)C(=O)N[C@H](C(=O)N[C@H](C(=O)NCC(=O)N[C@@H](CC(C)C)C(=O)N1CCC[C@H]1C(=O)N[C@@H](C)C(=O)N[C@@H](CC(C)C)C(=O)N[C@H](C(=O)N[C@@H](CO)C(=O)N[C@@H](Cc1c[nH]c2ccccc12)C(=O)N[C@H](C(=O)N[C@@H](CCCCN)C(=O)N[C@@H](CCCNC(=N)N)C(=O)N[C@@H](CCCCN)C(=O)N[C@@H](CCCNC(=N)N)C(=O)N[C@@H](CCC(N)=O)C(=O)N[C@@H](CCC(N)=O)C(N)=O)[C@@H](C)CC)[C@@H](C)CC)[C@@H](C)O)[C@@H](C)O)C(C)C)C(C)C [AM-mel] as the molecule, how does the MIC read?
A: 32 to 64 µg/mL
